Anti-infective test results gathered from many reports (values: NIAID ChemDB through PubChem).

Shared fields: tests in culture; organism: Mycobacterium tuberculosis

ECn: concentration that inhibits the pathogen or its effect by n%. Two numbers with a dash give a range or band. MIC bound: limit read from a one-dose screen. Inhibition is in % at the dose shown (toxicity tests: loss of growth or viability). A number after MIC or MFC names an inhibition level or a share of isolates. Rows are shuffled and stem from different studies. An empty or dashed field is not shown.

compound | strain or isolate | mutations | cells | read by | measure | tested at | value
CCC(=O)O[C@H]1CC[C@]2(C)C3=CC[C@]4(C)[C@@H]([C@H](C)CC/C=C(\C)C(=O)O)C[C@H](OC(=O)CC)[C@@]4(C)C3=CC[C@H]2C1(C)C | H37Ra | - | - | GFP | MIC90 | - | 0.781 µg/mL
COc1ccc(-c2nc(N)nc(N)n2)cc1OCc1ccc(F)cc1 | H37Rv | - | - | resazurin | MIC | - | 10.25 µM
CCC(=O)O[C@H]1C[C@H]([C@H](C)CC/C=C(\C)C(=O)O)[C@@]2(C)CC=C3C(=CC[C@H]4C(C)(C)[C@@H](OC(C)=O)CC[C@]34C)[C@]12C | H37Rv | - | - | resazurin | MIC90 | - | 0.3125 µg/mL
CCCCCC1CC(C)(O)N=C(c2ccccc2)S1 | H37Rv | - | - | - | inhibition | 6.25 µg/mL | 77%
O=C(Cc1ccccc1)N[C@@H]1C(=O)N2C(C(=O)O)=C(CN(O)C(=O)c3ccccc3)CSC12 | H37Rv | - | - | - | MIC | - | 53 µM
CC1(C)CC[C@]2(C(=O)O)CC[C@]3(C)C(CC[C@@H]4[C@@]5(C)C[C@H](O)CC(C)(C)[C@@H]5CC[C@]43C)[C@@H]2C1 | RIF-R (ATCC 35838) | - | - | resazurin | MIC | - | 25 µg/mL
COc1ccc(C(=O)N(O)CC2=C(C(=O)O)N3C(=O)[C@@H](NC(=O)Cc4ccccc4)C3SC2)cc1 | H37Rv | - | - | - | MIC | - | 61.6 µM
C=C[C@](C)(O)CC[C@H]1C(=C)CC[C@H]2C(C)(C)[C@@H](O)CC[C@]12C | - | - | - | - | MIC | - | >100 µg/mL
CCCCCCCCCCC(Oc1ccc(Cl)cc1)C(=O)O | H37Rv | - | - | - | MIC | - | 100 µg/mL
NC(=S)N/N=C\c1c(C(=O)O)[nH]c2ccccc12 | H37Rv | - | - | broth dilution | MIC | - | 0.2 µg/mL
[O-][n+]1c2ccccc2[n+]([O-])c2c3ccccc3[nH]c21 | H37Rv | - | - | resazurin | inhibition | 6.25 µg/mL | 99%
CCOC(=O)c1[nH]c2ccc(OC)cc2c1/C=N\NC(N)=S | H37Rv | - | - | broth dilution | MIC | - | 0.2 µg/mL
C/C=C/C(=O)O[C@H]1C[C@H]([C@H](C)CC/C=C(\C)C(=O)O)[C@@]2(C)CC=C3C(=CC[C@H]4C(C)(C)[C@@H](OC(C)=O)CC[C@]34C)[C@]12C | H37Ra | - | - | GFP | MIC90 | - | 0.781 µg/mL
Nc1nc(-c2ccccc2)c(N=Nc2ccccc2C(=O)O)s1 | H37Rv | - | - | BACTEC | inhibition | 6.25 µg/mL | 0%
COc1cc(CC(=O)N2COC(c3sc4ccc(Oc5ccccc5)cc4c3Cl)=N2)ccc1O | H37Rv | - | - | - | inhibition | 6.25 µg/mL | 6%
CCCCCCCCCCC(C(=O)O)S(=O)(=O)c1ccc(OC)cc1 | H37Rv | - | - | - | MIC | - | 10 µg/mL
c1ccc(-c2nn3cc(C45CC6CC(CC(C6)C4)C5)nc3s2)cc1 | H37Rv | - | - | resazurin | MIC | - | 10.5 µM
CN(C)c1ccc(C2C(Cl)C(=O)C2NC(=O)c2sc3ccc(Oc4ccccc4)cc3c2Cl)cc1 | H37Rv | - | - | - | inhibition | 6.25 µg/mL | 0%
O=[N+]([O-])c1cc(C(F)(F)F)cc([N+](=O)[O-])c1N1CCCC(n2cccc2)C1 | H37Rv | - | - | BACTEC | MIC bound | - | >12.5 µg/mL
O=C(CC(=O)Nc1ccc(Cl)cc1)Nc1ccc(Cl)cc1 | - | - | - | - | MIC | - | 12.3 µM
Cc1ccc(NC(=O)Oc2cc(C)c(Cl)cc2Br)cc1Cl | H37Rv | - | - | BACTEC | inhibition | 12.5 µg/mL | -13%
CC(C)C1=CC2=CC[C@@H]3C(C)(C)CCC[C@@]3(C)[C@@H]2CC1 | - | - | - | - | MIC | - | >100 µg/mL
COc1ccc(OCc2cc(-c3ccc(OC[C@@]4(C)Cn5cc([N+](=O)[O-])nc5O4)cc3)no2)cc1 | H37Rv | - | - | broth dilution / resazurin | MIC | - | 1.05 µM
CO[C@H]1/C=C/O[C@@]2(C)Oc3c(C)c(O)c4c(O)c(c5c(c4c3C2=O)NC2(CCN(CC(C)C)CC2)N=5)=NC(=O)/C(C)=C\C=C\[C@H](C)[C@H](O)[C@@H](C)[C@@H](O)[C@@H](C)[C@H](OC(C)=O)[C@@H]1C | 6 strains (rifampicin-resistant) | - | - | - | MIC90 | - | 12.5 µg/mL
C[C@]1(COc2ccc(-n3cc(COc4ccccc4F)nn3)cc2)Cn2cc([N+](=O)[O-])nc2O1 | ss18b non-replicating phase | - | - | broth dilution / resazurin | MIC | - | 4.29 µM
Cc1nn2cc(C34CC5CC(CC(C5)C3)C4)nc2s1 | H37Rv | - | - | resazurin | MIC | - | 22.7 µM
COC(=O)C(=O)C(C(=O)C(c1ccccc1)c1ccccc1)c1nc2n(c1O)/C(=N/C(=O)Nc1ccc(Cl)cc1)N=N2 | H37Rv | - | - | resazurin | inhibition | 6.25 µg/mL | 16%
CCCCCCCCCCC(C(=O)O)S(=O)(=O)c1ccc(C)cc1 | H37Rv | - | - | - | MIC | - | 10 µg/mL
C/C=C/C(=O)NCC(C(C)C)/[N+]([O-])=N/O | H37Rv | - | - | BACTEC | MIC bound | - | >12.5 µg/mL
C[C@]1(COc2ccc(-c3cc(-c4ccccc4F)on3)cc2)Cn2cc([N+](=O)[O-])nc2O1 | ss18b non-replicating phase | - | - | broth dilution / resazurin | MIC | - | >36 µM
COc1cc(CC(=O)N2COC(c3sc4ccc(Oc5ccccc5)cc4c3Cl)=N2)cc(OC)c1OC | H37Rv | - | - | - | inhibition | 6.25 µg/mL | 19%
O=C(Cc1ccccc1)N[C@@H]1C(=O)N2C3=C(CSC12)CN(C(=O)c1ccc(F)cc1)OC3=O | H37Rv | - | - | - | MIC | - | 23.4 µM
c1c(C23CC4CC(CC(C4)C2)C3)nc2sc(C3CCCCC3)nn12 | H37Rv | - | - | resazurin | MIC | - | 36.5 µM
CC(=O)OC1C(=O)[C@H]2[C@@H](CC=C3CC(O)CC(O)[C@@]32C)[C@@H]2CC[C@H]([C@H](C)C3CC(C)C(C)(C)O3)[C@@]12C | H37Rv | - | - | BACTEC | inhibition | 12.5 µg/mL | 14%
C=C[C@@](C)(CC[C@H]1C(=C)CC[C@H]2C(C)(C)[C@@H](OC(C)=O)CC[C@]12C)OC(C)=O | - | - | - | - | MIC | - | >100 µg/mL
C[C@]1(COc2ccc(-n3cc(COc4ccc(F)cc4)nn3)cc2)Cn2cc([N+](=O)[O-])nc2O1 | H37Rv | - | - | broth dilution / resazurin | MIC | - | 0.54 µM
O=C(Nc1ccccc1)C(=O)Nc1ccccc1 | - | - | - | - | MIC | - | 330 µM
COc1ccc(C2C(Cl)C(=O)C2NC(=O)c2sc3ccc(Oc4ccccc4)cc3c2Cl)cc1 | H37Rv | - | - | - | inhibition | 6.25 µg/mL | 2%
CCCC(=O)O[C@H]1CC[C@]2(C)C3=CC[C@]4(C)[C@@H]([C@H](C)CC/C=C(\C)C(=O)O)C[C@H](OC(=O)CCC)[C@@]4(C)C3=CC[C@H]2C1(C)C | H37Ra | - | - | GFP | MIC90 | - | >50 µg/mL
Nc1ccc2nc3ccc(N)cc3[n+](-c3ccccc3)c2c1 | H37Rv | - | - | BACTEC | inhibition | 12.5 µg/mL | 98%
O=C(Cc1ccccc1)N[C@@H]1C(=O)N2C3=C(CSC12)CN(C(=O)c1ccc(C(F)(F)F)cc1)OC3=O | H37Rv | - | - | - | MIC | - | 10.3 µM
OCC1OC(OC2C3CSC(O3)C(O)C2O)C(O)C(O)C1O | H37Rv | - | - | BACTEC | MIC bound | - | >12.5 µg/mL
O=C(Nc1ccc(Cl)cc1)C(=O)Nc1ccc(Cl)cc1 | - | - | - | - | MIC | - | >1000 µM
NNC(=O)CC(NN)c1ccccc1O | H37Rv | - | - | BACTEC | MIC | - | ≥12.5 µg/mL
COc1ccc(COc2ccc(-c3nc(N)nc(N)n3)cc2)cc1 | H37Rv | - | - | resazurin | MIC | - | 3.37 µM
NNC(=O)c1ccncc1 | DRM167 16x6 | DG167-resistant | - | resazurin | MIC | - | 0.19 µM
c1ccc(Cc2nn3cc(C45CC6CC(CC(C6)C4)C5)nc3s2)cc1 | H37Rv | - | - | resazurin | MIC | - | 30.7 µM
C[C@]1(COc2ccc(-c3cc(COc4ccc(F)cc4)on3)cc2)Cn2cc([N+](=O)[O-])nc2O1 | ss18b non-replicating phase | - | - | broth dilution / resazurin | MIC | - | 2.15 µM
NC(=O)NOCC1NC(=O)C(CONC(N)=O)NC1=O | H37Rv | - | - | BACTEC | inhibition | 12.5 µg/mL | 26%
COc1ccc(-c2nn3cc(C45CC6CC(CC(C6)C4)C5)nc3s2)cc1 | H37Rv | - | - | resazurin | MIC | - | 8.5 µM
O=C(Cc1ccccc1)N[C@@H]1C(=O)N2C(C(=O)O)=C(CN(O)C(=O)c3ccc(C(F)(F)F)cc3)CSC12 | H37Rv | - | - | - | MIC | - | 126.6 µM
COc1c(O)cc2oc3cc(O)c(CC=C(C)C)c(O)c3c(=O)c2c1CC=C(C)C | H37Rv | - | - | - | MIC | - | 4 µg/mL
CO[C@H]1/C=C/O[C@@]2(C)Oc3c(C)c(O)c4c(O)c(c5c(c4c3C2=O)NC2(CCN(CC(C)C)CC2)N=5)=NC(=O)/C(C)=C\C=C\[C@H](C)[C@H](O)[C@@H](C)[C@@H](O)[C@@H](C)[C@H](OC(C)=O)[C@@H]1C | 9 (rifampicin-resistant) | - | - | - | MIC | - | >2 µg/mL
CCCCCCCCCCC(C(=O)O)S(=O)(=O)c1ccccc1 | H37Rv | - | - | - | MIC | - | 100 µg/mL
c1cc2c3c(cccc3c1)NC1(CCC3(CC1)Nc1cccc4cccc(c14)N3)N2 | H37Rv | - | - | BACTEC | inhibition | 128 µg/mL | 100%
NC(=O)c1cnccn1 | H37Rv | - | - | resazurin | MIC | - | 12.5 µM
Cl.N=c1c2ccccc2nc2oc3cc([N+](=O)[O-])ccc3n12 | H37Rv | - | - | BACTEC | inhibition | 12.5 µg/mL | -9%
CCCC1CC(C)(O)N=C(c2ccccc2)S1 | H37Rv | - | - | - | EC50 | - | >6.25 µg/mL
CC(=O)Nc1ccc(/C=N/NC(N)=S)cc1F | Rifampicin-resistant | - | - | - | MBC | - | >62.5 µg/mL
COc1ccc(COc2ccc(C(O)C3CC3)cc2)cc1 | H37Ra | - | - | - | MIC | - | >25 µg/mL
O=C(N/N=C/c1ccc(O)cc1)c1sc2ccc(Oc3ccccc3)cc2c1Cl | H37Rv | - | - | - | inhibition | 6.25 µg/mL | 5%
CC(C)CCOc1ccc(NC(=S)Nc2ccc(OCCC(C)C)cc2)cc1 | Isolates ethionamide/thioacetazone-sensitive | - | - | - | MIC | - | 0.5–5 µg/mL
NC(=O)c1csc(Nc2csc(N)n2)n1 | H37Rv | - | - | BACTEC | inhibition | 12.5 µg/mL | -18%
CCC1(O)CCSC(c2ccccc2)=N1 | H37Rv | - | - | - | EC50 | - | <6.25 µg/mL
COc1ccc(-c2nc(N)nc(N)n2)cc1OCc1ccc(Cl)cc1 | H37Rv | - | - | resazurin | MIC | - | 4.92 µM
CSc1ccc(/C=N/NC(=O)c2sc3ccc(Oc4ccccc4)cc3c2Cl)cc1 | H37Rv | - | - | - | inhibition | 6.25 µg/mL | 11%
C[C@]1(COc2ccc(-c3cc(COc4ccc(Br)cc4)on3)cc2)Cn2cc([N+](=O)[O-])nc2O1 | H37Rv | - | - | broth dilution / resazurin | MIC | - | 0.95 µM
CSc1ccc(C2C(Cl)C(=O)C2NC(=O)c2sc3ccc(Oc4ccccc4)cc3c2Cl)cc1 | H37Rv | - | - | - | inhibition | 6.25 µg/mL | 12%
C[C@]1(COc2ccc(-c3cc(-c4ccc(F)cc4F)on3)cc2)Cn2cc([N+](=O)[O-])nc2O1 | H37Rv | - | - | broth dilution / resazurin | MIC | - | 1.1 µM
CC(=O)O[C@H]1CC[C@]2(C)C3=CC[C@]4(C)[C@@H]([C@H](C)CC/C=C(\C)C(=O)O)C[C@H](OC(=O)C(C)C)[C@@]4(C)C3=CC[C@H]2C1(C)C | H37Ra | - | - | GFP | MIC90 | - | 0.781 µg/mL
Cc1ccc(NC(=O)CC(=O)Nc2ccc(C)c(Cl)c2)cc1Cl | - | - | - | - | MIC | - | 37 µM
CCCCCCCCCCC(Oc1cccc(Cl)c1)C(=O)O | H37Rv | - | - | - | MIC | - | 0.1 µg/mL
NC(=O)C#CC(N)=O | H37Rv | - | VERO | BACTEC | MIC | - | 3.13 µg/mL
COc1ccc2[nH]c(C(=O)O)c(/C=N\NC(N)=S)c2c1 | H37Rv | - | - | broth dilution | MIC | - | 0.2 µg/mL
O=C1C(=Nc2ccc(Cl)nc2)CC(c2ccccc2)N1c1ccc(Cl)nc1 | H37Rv | - | - | BACTEC | MIC bound | - | >12.8 µg/mL
CC1SC(c2ccccc2)=NC(C)(O)C1C | H37Rv | - | - | - | EC50 | - | >6.25 µg/mL
Cc1cc(-c2ccco2)oc(=O)c1NC(=O)c1cnccn1 | H37Rv | - | - | BACTEC | MIC bound | - | >6.25 µg/mL
COc1ccc(CC(=O)N2COC(c3sc4ccc(Oc5ccccc5)cc4c3Cl)=N2)cc1OC | H37Rv | - | - | - | inhibition | 6.25 µg/mL | 0%
Cc1cc(=O)c2c(O)c3c(O)cc(O)c4c5c(O)cc(O)c6c(O)c7c(=O)cc(C)c8c1c2c(c34)c(c65)c78 | H37Rv | - | - | BACTEC | MIC bound | - | >12.5 µg/mL
CCCCCCCCCCCCCCC(Oc1ccc(Cl)cc1)C(=O)O | H37Rv | - | - | - | MIC | - | 10 µg/mL
COC(=S)SSC(=S)NCCNC(=S)SSC(=S)OC | H37Rv | - | - | BACTEC | MIC | - | 6.25 µg/mL
C[C@]1(COc2ccc(-c3cc(-c4ccccc4C(F)(F)F)on3)cc2)Cn2cc([N+](=O)[O-])nc2O1 | H37Rv | - | - | broth dilution / resazurin | MIC | - | 0.51 µM
CCCCCCCCCCCCCCC(Oc1cccc(Cl)c1)C(=O)O | H37Rv | - | - | - | MIC | - | 100 µg/mL